Measurements as given in patent publication US10962529B1 (priority 2020, dated 2021).
Where two headings read alike, the source gives them in different places.

Tested on: SARS-COV-2 live virus (protease)
Test: Real-time fluorescence kinetics and detection limit of FRET substrate with live virus
Type: biochemical

FITC-Ahx-H-d-K(Dabcyl) was tested, and the “Limit of detection (LOD), 3SD/m from calibration plot” value (“Limit of detection (LOD), 3SD/m” for short) was 9±3 pfu/ml, the “Limit of detection (LOD), 3SD/m” value (listed as FITC-Ahx-H-d-(Dabcyl)) was 9±3 pfu/ml and the “Limit of detection (LOD), 3SD/m” value (listed as H-d) was 9.7±3 pfu/ml.
